Article PMC9144902, “Metal(II) Complexes of the Fluoroquinolone Fleroxacin: Synthesis, Characterization and Biological Profile” (Pharmaceutics, 2022)

Test system: calf-thymus DNA (CT DNA)
Assay: DNA-binding study by UV–vis absorption spectroscopy
Settings: + hyperchromism / − hypochromism

CN1CCN(c2c(F)cc3c(=O)c(C(=O)O)cn(CCF)c3c2F)CC1 [Fleroxacin, 6,8-difluoro-1-(2–fluoroethyl)-7-(4-methylpiperazin-1-yl)-4-oxoquinoline-3-carboxylic acid]
Band (ΔA/A0, Δλ): UV–vis band λmax, percentage of hyper-/hypochromism, blue/red shift upon addition of DNA: 291 (−17, −6); 331 (+8, 0) nm (%, nm)
